Anti-infective test results gathered from many reports (values: NIAID ChemDB through PubChem).

Shared fields: whole-cell or culture tests; organism: HIV-1

Lines come from different laboratories, so protocols vary.

compound,strain,mutations,cells,method,endpoint,result
COc1ccnc2[nH]cc(C(=O)C(=O)N3CCN(C(=O)c4ccccc4)C[C@H]3C)c12,PVO,-,TZM-bl,luciferase,EC99,0.42 µM
Cc1cc(S(N)(=O)=O)ccc1NC(=O)COc1ccc(Cl)cc1C(=O)c1cccc(C#N)c1,HXB2,RT-K103N P225H,HeLa + HELA CD4+,β-galactosidase,fold resistance,~1
CC(C)CN(C[C@H](O)C[C@@H](CN[C@H]1Cc2ccccc2[C@H]1O)Cc1ccccc1)S(=O)(=O)c1ccccc1,IIIB,-,CEM,p24,EC90,1 µM
Cc1cc(C#N)cc(C(=O)c2cc(Cl)ccc2OCC(=O)Nc2ccc(S(N)(=O)=O)nc2C)c1,HXB2,RT-V106I Y181C,HeLa + HELA CD4+,β-galactosidase,fold resistance,~1
CC(C)=CCOc1cc(NC(=S)c2ccoc2C)ccc1Cl,NL4-3,RT-Y188C,CEM + CEM-SS,p24,fold resistance,1.67
CS(=O)(=O)Nc1ccc(NC(=O)COc2ccc(Cl)cc2C(=O)c2ccccc2)cc1,HXB2 (RT-K103N Y181C) Recombinant,RT-K103N Y181C,HeLa + HELA CD4+,β-galactosidase,fold resistance,~100
COc1ccc(S(=O)(=O)NC(Cc2ccccc2)C(F)(F)C(=O)[C@@H](Cc2ccccc2)NC(=O)OC2COCOC2)cc1,IIIB,-,CEM,p24,EC90,1 µM
O=C1Nc2ccc(Cl)cc2[C@@](/C=C/C2CC2)(C(F)(F)F)N1,-,RT-V108I,-,-,EC90,<0.012 µM
COc1ccc(S(=O)(=O)N(CC(C)C)C[C@@H](O)CCN(CC2CCCC2)S(=O)(=O)Cc2ncc[nH]2)cc1,IIIB,-,CEM,p24,EC90,1 µM
COc1ccnc2[nH]cc(C(=O)C(=O)N3C4CC3CN(C(=O)c3ccccc3)C4)c12,SF162,-,TZM-bl,luciferase,EC90,>250 µM
COc1ccc(S(=O)(=O)N(CC[C@H](O)CN2CSC[C@@H]2C(=O)NC(C)(C)C)CC(C)C)cc1,IIIB,-,CEM,p24,EC90,1 µM
Cc1cc(S(N)(=O)=O)ccc1NC(=O)COc1ccc(Cl)cc1C(=O)c1cccc(C#N)n1,HXB2,RT-G190A,HeLa + HELA CD4+,β-galactosidase,fold resistance,~1
COc1ccc(S(=O)(=O)N(CC(C)C)C[C@@H](O)CCN(CC2CCCC2)S(=O)(=O)CC2COCO2)cc1,IIIB,-,CEM,p24,EC90,1 µM
Cc1cc2[nH]cnc2cc1NC(=O)COc1ccc(Cl)cc1C(=O)c1cc(F)cc(C(F)(F)F)c1,HXB2,RT-K101E,HeLa + HELA CD4+,β-galactosidase,EC50,<0.01 µM
O=C1Nc2ccc(F)c(F)c2[C@@](/C=C/C2CC2)(C(F)(F)F)N1,-,-,-,-,EC90,0.0019 µM
CCc1cc(C#N)cc(C(=O)c2cc(Cl)ccc2OCC(=O)Nc2ccc(S(N)(=O)=O)cc2C)c1,HXB2,RT-V108I Y181C,HeLa + HELA CD4+,β-galactosidase,fold resistance,~1
O=C(c1ccccc1)N(CCc1ccccc1)C[C@H](O)CN(CC1CCCC1)S(=O)(=O)Cc1cnc[nH]1,IIIB,-,CEM,p24,EC90,1 µM
O=C(O)c1cc(-n2cccc2)ccc1Cl,93BR020 X4R5 CLADE F,-,PBMC/5.25M7,luciferase / cell fusion,EC90,20.32 µM
CCC(=O)c1ccc(F)c([C@@H]2C[C@@H]2NC(=O)Nc2ccc(C#N)cn2)c1O,LAI,NNRTI-resistant (RT K103N),TZM-bl,β-galactosidase / luminescence,fold resistance,34.6
COc1ccc(S(=O)(=O)N(CC(C)C)CC(O)CN(CC(C)C)S(=O)(=O)c2ccccc2)cc1,IIIB,-,CEM,p24,EC90,1 µM
Cc1cc(S(N)(=O)=O)ccc1NC(=O)COc1ccc(Cl)cc1C(=O)c1cc(F)cc(C#N)c1,HXB2,RT-G190A,HeLa + HELA CD4+,β-galactosidase,fold resistance,~1

The last 2 rows once more:

compound	strain	mutations	cells	method	endpoint	result
COc1ccc(S(=O)(=O)N(CC(C)C)CC(O)CN(CC(C)C)S(=O)(=O)c2ccccc2)cc1	IIIB	-	CEM	p24	EC90	1 µM
Cc1cc(S(N)(=O)=O)ccc1NC(=O)COc1ccc(Cl)cc1C(=O)c1cc(F)cc(C#N)c1	HXB2	RT-G190A	HeLa + HELA CD4+	β-galactosidase	fold resistance	~1

ECn is the concentration giving n% inhibition of infection, replication or growth. Fold resistance: result on the changed form divided by that on wild type. An empty or dashed field is not shown.